Results reported in article PMC9270327 (Communications Biology, 2022).

Chains of the proteins cited; added tags and fusions are not shown. Residues count along the entry.
UniProt Q9Y5Y6, whole entry: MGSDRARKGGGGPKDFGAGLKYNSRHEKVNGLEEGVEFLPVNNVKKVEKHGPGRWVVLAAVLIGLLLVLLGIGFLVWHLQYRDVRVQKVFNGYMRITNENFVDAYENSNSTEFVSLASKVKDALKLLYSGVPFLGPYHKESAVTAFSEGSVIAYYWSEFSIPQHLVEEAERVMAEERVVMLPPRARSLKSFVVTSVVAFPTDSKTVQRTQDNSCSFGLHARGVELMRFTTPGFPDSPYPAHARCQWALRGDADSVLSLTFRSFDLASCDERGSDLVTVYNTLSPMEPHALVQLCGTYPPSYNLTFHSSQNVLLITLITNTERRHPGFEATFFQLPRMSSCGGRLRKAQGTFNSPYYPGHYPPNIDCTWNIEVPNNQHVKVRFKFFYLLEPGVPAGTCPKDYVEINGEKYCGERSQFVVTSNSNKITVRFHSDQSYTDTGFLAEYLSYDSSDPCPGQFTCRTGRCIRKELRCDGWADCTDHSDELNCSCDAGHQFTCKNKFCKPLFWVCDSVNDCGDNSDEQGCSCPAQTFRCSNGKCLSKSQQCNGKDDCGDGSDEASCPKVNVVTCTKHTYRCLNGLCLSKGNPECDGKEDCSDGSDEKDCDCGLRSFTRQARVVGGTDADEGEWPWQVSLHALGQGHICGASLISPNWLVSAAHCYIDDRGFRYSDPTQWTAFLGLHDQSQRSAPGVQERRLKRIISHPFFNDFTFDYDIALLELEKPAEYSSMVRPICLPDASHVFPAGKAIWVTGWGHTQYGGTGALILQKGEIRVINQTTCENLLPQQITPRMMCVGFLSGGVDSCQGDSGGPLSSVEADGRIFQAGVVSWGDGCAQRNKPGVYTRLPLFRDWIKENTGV
UniProt P00742, 235-488 limits assumed: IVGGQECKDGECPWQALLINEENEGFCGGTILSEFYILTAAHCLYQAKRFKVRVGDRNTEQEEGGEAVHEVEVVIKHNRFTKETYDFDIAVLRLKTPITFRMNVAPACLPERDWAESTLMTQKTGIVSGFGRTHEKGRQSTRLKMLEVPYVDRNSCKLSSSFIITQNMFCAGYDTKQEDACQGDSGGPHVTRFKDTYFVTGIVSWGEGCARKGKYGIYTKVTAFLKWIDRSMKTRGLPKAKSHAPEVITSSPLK
UniProt P00742, 41-179 partner limits assumed: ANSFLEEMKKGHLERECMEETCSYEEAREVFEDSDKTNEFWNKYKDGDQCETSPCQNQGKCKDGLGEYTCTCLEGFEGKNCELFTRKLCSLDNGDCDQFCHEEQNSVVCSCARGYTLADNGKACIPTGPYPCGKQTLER
UniProt O15393, whole entry: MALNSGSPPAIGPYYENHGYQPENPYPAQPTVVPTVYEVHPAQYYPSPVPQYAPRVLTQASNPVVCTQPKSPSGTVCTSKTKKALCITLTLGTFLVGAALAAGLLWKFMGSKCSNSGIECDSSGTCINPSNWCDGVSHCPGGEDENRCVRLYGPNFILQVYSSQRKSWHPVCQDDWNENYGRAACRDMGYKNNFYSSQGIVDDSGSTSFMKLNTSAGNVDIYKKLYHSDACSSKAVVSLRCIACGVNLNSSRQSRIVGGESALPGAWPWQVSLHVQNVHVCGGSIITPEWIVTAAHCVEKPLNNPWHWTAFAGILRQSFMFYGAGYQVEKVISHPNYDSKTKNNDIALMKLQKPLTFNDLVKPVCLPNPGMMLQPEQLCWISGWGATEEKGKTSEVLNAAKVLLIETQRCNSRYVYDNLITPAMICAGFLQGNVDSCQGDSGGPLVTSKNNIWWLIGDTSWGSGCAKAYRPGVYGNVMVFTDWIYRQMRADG

Legend:
[1] = biological target: recombinant human matriptase (Homo sapiens, UniProt Q9Y5Y6); assay: Enzyme inhibition assay with purified matriptase (Ki, dose-response); type: biochemical
[2] = biological target: recombinant human thrombin (Homo sapiens, UniProt P00734); assay: Enzyme inhibition assay with purified thrombin (Ki, dose-response); type: biochemical
factor Xa = factor Xa (Homo sapiens, UniProt P00742); assay: Enzyme inhibition assay with purified factor Xa (Ki, dose-response); type: biochemical; settings: for factor Xa activity, Mean (Fig. 2d): normalized, 0 nM = 100
[3] = biological target: TMPRSS2 expressed in HEK293T cells (Homo sapiens, UniProt O15393); assay: Inhibition of cellular TMPRSS2 activity on HEK293T cells transiently expressing TMPRSS2; type: cell-based; settings: 2 h; for normalized fluorescence intensity, HEK293T TMPRSS2, Mean (Fig. 4b): corrected for mock-transfected cells
[4] = system: lentiviral pseudoparticles carrying SARS-CoV-2 Wuhan-Hu-1 spike, Caco-2 cells; assay: Pseudovirus inhibition assay, wild-type (Wuhan-Hu-1) spike; settings: for SARS-CoV-2 spike driven entry, Mean (0 nM = 100): Fig. 5a, Wuhan-Hu-1 spike pseudoparticles
[5] = system: lentiviral pseudoparticles carrying SARS-CoV-2 Alpha (B.1.1.7) spike, Caco-2 cells; assay: Pseudovirus inhibition assay, Alpha spike; settings: for SARS-CoV-2 spike driven entry, Mean (0 nM = 100): Fig. 5b, Alpha spike pseudoparticles
[6] = system: lentiviral pseudoparticles carrying SARS-CoV-2 Beta (B.1.351) spike, Caco-2 cells; assay: Pseudovirus inhibition assay, Beta spike; settings: for SARS-CoV-2 spike driven entry, Mean (0 nM = 100): Fig. 5c, Beta spike pseudoparticles
[7] = system: lentiviral pseudoparticles carrying SARS-CoV-2 Delta (B.1.617.2) spike, Caco-2 cells; assay: Pseudovirus inhibition assay, Delta spike; settings: Fig. 5d, Delta spike pseudoparticles

CC(=O)N[C@@H](Cc1c[nH]cn1)C(=O)N1CCC[C@H]1C(=O)NC(CCCNC(=N)N)C(=O)c1nc2ccccc2s1 (stereo partly shown)
Selectivity index Matriptase ([1]; quotient Ki matriptase / Ki TMPRSS2): 1.4
Ki ([1]; read-out: Ki Matriptase, 30 min preincubation, substrate Boc-Gln-Ala-Arg-AMC): 11.5 nM
Selectivity index Thrombin ([2]; quotient Ki thrombin / Ki TMPRSS2): 849
Ki ([2]; read-out: Ki Thrombin, 30 min preincubation, substrate D-Phe-Homopro-Arg-pNA): 7220 nM
factor Xa activity, Mean (Fig. 2d) (factor Xa; 0.02 nM): 108.286
factor Xa activity, Mean (Fig. 2d) (factor Xa; 0.04 nM): 93.9225
factor Xa activity, Mean (Fig. 2d) (factor Xa; 0.2 nM): 100.182
factor Xa activity, Mean (Fig. 2d) (factor Xa; 2 nM): 107.458
factor Xa activity, Mean (Fig. 2d) (factor Xa; 20 nM): 86.9235
factor Xa activity, Mean (Fig. 2d) (factor Xa; 200 nM): 69.797
factor Xa activity, Mean (Fig. 2d) (factor Xa; 10000 nM): 11.418
factor Xa activity, Mean (Fig. 2d) (factor Xa; 100000 nM): 11.0497
Selectivity index Factor Xa (factor Xa; quotient Ki factor Xa / Ki TMPRSS2): 38.9
Ki (factor Xa; read-out: Ki Factor Xa, 30 min preincubation, substrate Bz-Ile-Glu-Gly-Arg-pNA): 331 nM
normalized fluorescence intensity, HEK293T TMPRSS2, Mean (Fig. 4b) ([3]; 0.5 nM): 62.045
normalized fluorescence intensity, HEK293T TMPRSS2, Mean (Fig. 4b) ([3]; 5 nM): 61.69
normalized fluorescence intensity, HEK293T TMPRSS2, Mean (Fig. 4b) ([3]; 50 nM): 47.875
normalized fluorescence intensity, HEK293T TMPRSS2, Mean (Fig. 4b) ([3]; 500 nM): 22.78
normalized fluorescence intensity, HEK293T TMPRSS2, Mean (Fig. 4b) ([3]; 5000 nM): 3.58
normalized fluorescence intensity, HEK293T TMPRSS2, Mean (Fig. 4b) ([3]; 50000 nM): -2.08
IC50 ([3]; read-out: IC50 HEK293T TMPRSS2, corrected for mock-transfected HEK293T cells): 13.3 nM
SARS-CoV-2 spike driven entry, Mean (0 nM = 100) ([4]; compound 32 nM): 102.325
SARS-CoV-2 spike driven entry, Mean (0 nM = 100) ([4]; compound 160 nM): 88.717
SARS-CoV-2 spike driven entry, Mean (0 nM = 100) ([4]; compound 800 nM): 68.7115
SARS-CoV-2 spike driven entry, Mean (0 nM = 100) ([4]; compound 4000 nM): 16.6
SARS-CoV-2 spike driven entry, Mean (0 nM = 100) ([4]; compound 20000 nM): 2.541
SARS-CoV-2 spike driven entry, Mean (0 nM = 100) ([4]; compound 100000 nM): 3.21
IC50 ([4]; read-out: IC50 pseudotyped lentivirus Wuhan-Hu-1, Caco-2 cells, luciferase 2 days post transduction): 1320 nM
SARS-CoV-2 spike driven entry, Mean (0 nM = 100) ([5]; compound 3.2 nM): 84.747
SARS-CoV-2 spike driven entry, Mean (0 nM = 100) ([5]; compound 16 nM): 84.996
SARS-CoV-2 spike driven entry, Mean (0 nM = 100) ([5]; compound 80 nM): 73.309
SARS-CoV-2 spike driven entry, Mean (0 nM = 100) ([5]; compound 400 nM): 61.9645
SARS-CoV-2 spike driven entry, Mean (0 nM = 100) ([5]; compound 2000 nM): 29.747
SARS-CoV-2 spike driven entry, Mean (0 nM = 100) ([5]; compound 10000 nM): 5.316
SARS-CoV-2 spike driven entry, Mean (0 nM = 100) ([5]; compound 50000 nM): 1.6355
IC50 ([5]; read-out: IC50 pseudotyped lentivirus Alpha, Caco-2 cells, luciferase 2 days post transduction): 486 nM
SARS-CoV-2 spike driven entry, Mean (0 nM = 100) ([6]; compound 3.2 nM): 74.1565
SARS-CoV-2 spike driven entry, Mean (0 nM = 100) ([6]; compound 16 nM): 60.683
SARS-CoV-2 spike driven entry, Mean (0 nM = 100) ([6]; compound 80 nM): 61.0295
SARS-CoV-2 spike driven entry, Mean (0 nM = 100) ([6]; compound 400 nM): 51.263
SARS-CoV-2 spike driven entry, Mean (0 nM = 100) ([6]; compound 2000 nM): 21.222
SARS-CoV-2 spike driven entry, Mean (0 nM = 100) ([6]; compound 10000 nM): 8.6885
SARS-CoV-2 spike driven entry, Mean (0 nM = 100) ([6]; compound 50000 nM): 1.351
IC50 ([6]; read-out: IC50 pseudotyped lentivirus Beta, Caco-2 cells, luciferase 2 days post transduction): 141 nM
SARS-CoV-2 spike driven entry, Mean (0 nM = 100) ([7]; compound 3.2 nM): 88.7367
SARS-CoV-2 spike driven entry, Mean (0 nM = 100) ([7]; compound 16 nM): 86.7648
SARS-CoV-2 spike driven entry, Mean (0 nM = 100) ([7]; compound 80 nM): 78.605
SARS-CoV-2 spike driven entry, Mean (0 nM = 100) ([7]; compound 400 nM): 63.5363
SARS-CoV-2 spike driven entry, Mean (0 nM = 100) ([7]; compound 2000 nM): 31.2727
